Values quoted from earlier work in patent publication US10092573B2, “Gastric and colonic formulations and methods for making and using them” (Salix Pharmaceuticals, Inc., priority 2010, dated 2018).

Test system: colonic bacteria / faecal flora

OC[C@@H](O)[C@@H](O)CO [Erythritol, (2R,3S)-butane-1,2,3,4-tetraol]
metabolism by faecal (fecal) flora: no significant metabolism
fermentation by colonic bacteria (only non-combustible short chain fatty acids and CO2 in small amounts): none or minimal fermentation
